Read-outs that look alike come from different tables or passages of the source.
Legend:
Conditions in all cases: remark: other sources report otherwise
[1] = target: T1, SARS-CoV-2 spike receptor-binding domain (RBD) (SARS-CoV-2), P0DTC2
[2] = target: T1, SARS-CoV-2 spike receptor-binding …; assay: SPR (Biacore 3000), RBD immobilised
[3] = target: T1, SARS-CoV-2 spike receptor-binding …; assay: indirect ELISA, RBD coated on plate, 4PL fit
[4] = target: T1, SARS-CoV-2 spike receptor-binding …; remark: listed apart in the source
[5] = target: T1, SARS-CoV-2 spike receptor-binding …; remark: listed apart in the source
[6] = target: receptor-binding domain (RBD) of the SARS-CoV-2 spike (S) glycoprotein (SARS-CoV-2), P0DTC2
[7] = target: T1, SARS-CoV-2 spike receptor-binding …; remark: listed apart in the source
[8] = target: T1, SARS-CoV-2 spike receptor-binding …; remark: listed apart in the source
[9] = target: T1, SARS-CoV-2 spike receptor-binding …; assay: indirect ELISA on coated RBD ('ELISA affinity')
[10] = target: T1, SARS-CoV-2 spike receptor-binding …; remark: listed apart in the source

B1: Nb20 (VHH)
VHH: QVQLVESGGGLVQAGGSLRLSCAVSGAGAHRVGWFRRAPGKEREFVAAIGASGGMTNYLDSVKGRFTISRDNAKNTIYLQMNSLKPQDTAVYYCAARDIETAEYIYWGQGTQVTVSS
Binder B1 has an IC50 [1] of 0.48 nM, a Kd [2] of 0.0104 nM and an ELISA affinity [3] of 0.4 nM. For the same binder, the Kd [4] was 0.0104 nM, the EC50 (read off the curve) [5] was 1 nM and the Buried surface area [6] was 718 Å^2. For the same binder, the Kd [7] was 0.0104 nM, the koff [7] was 3.08e-05 s⁻¹ and the kon [7] was 2.96e+06 M⁻¹ s⁻¹. It also gave a Kd [8] of 0.01 nM, an IC50 [9] of 0.4 nM and a koff [10] of 3.08e-05 s⁻¹. It also gave a kon [10] of 2.96e+06 M⁻¹ s⁻¹.

— US20240043505A1
